PubChem BioAssay AID504761 | Drosophila RNAi Screening Center | 2011

Screen: 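Insect host genes that dengue virus relies on to spread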 (primary screen)
Cell system: D.Mel-2 cells from Drosophila
Knock-down reagent: long dsRNA against Drosophila genes
Challenge: infection with dengue virus type 2; dose and infection time not stated
Detection: 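Cells stained for dengue envelope protein and imaged; percent of infected cells per well on duplicate plates, ranked by infection, with stained nuclei counted for cell number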
Direction: infection score: higher = more virus-infected cells; cell count: higher = more cells in the well
Call rule: 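Very low infection ranking in both replicate wells (chance probability at most 0.065), then a retest showing infection dropped 1.5-fold or more at p below 0.05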
Meaning of the calls: active = confirmed: knock-down lowers infection; inactive = not picked or not confirmed
The screen tested about 22,000 reagents; below is a random part of those with a known target gene and a result. Of all reagents, 116 (0.52%) got an active call. 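Calls depend on retest data that are not deposited; infection was ranked per plate without normalising between plates; the unit of the infection score is not given.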 Raw values are not corrected between plates. Not all columns of the deposit are shown. Not stated in the record: the amount of reagent, the time to read-out.

CG43901 [DRSC19397] → infection score, replicate 1 = 4.74; cell count, replicate 1 = 6492; activity call = inactive
CG43901 [DRSC27031] → infection score, replicate 1 = 3.97; cell count, replicate 1 = 6908; activity call = inactive
CG5793 [DRSC15874] → infection score, replicate 1 = 19.3; cell count, replicate 1 = 2565; activity call = inactive
CG5793 [DRSC26692] → infection score, replicate 1 = 6.36; cell count, replicate 1 = 6662; activity call = inactive

Records listed so far whose target name starts with C or c (4):
CG43901 [DRSC19397] → infection score, replicate 1 = 4.74; cell count, replicate 1 = 6492; activity call = inactive
CG43901 [DRSC27031] → infection score, replicate 1 = 3.97; cell count, replicate 1 = 6908; activity call = inactive
CG5793 [DRSC15874] → infection score, replicate 1 = 19.3; cell count, replicate 1 = 2565; activity call = inactive
CG5793 [DRSC26692] → infection score, replicate 1 = 6.36; cell count, replicate 1 = 6662; activity call = inactive

The list goes on:
CG1695 [DRSC20538] → infection score, replicate 1 = 4.72; cell count, replicate 1 = 5672; activity call = inactive
CG1695 [DRSC25561] → infection score, replicate 1 = 3.93; cell count, replicate 1 = 6152; activity call = inactive
CG12581 [DRSC12206] → infection score, replicate 1 = 10.7; cell count, replicate 1 = 1815; activity call = inactive
CG12581 [DRSC12207] → infection score, replicate 1 = 9.78; cell count, replicate 1 = 6445; activity call = inactive
Boh1 (Buddy of Hmr 1) [DRSC14487] → infection score, replicate 1 = 3.97; cell count, replicate 1 = 6366; activity call = inactive
Ir51b (Ionotropic receptor 51b) [DRSC05540] → infection score, replicate 1 = 1.08; cell count, replicate 1 = 6188; activity call = inactive
CG16800 [DRSC02518] → infection score, replicate 1 = 14; cell count, replicate 1 = 6513; activity call = inactive
CG16800 [DRSC28237] → infection score, replicate 1 = 10.7; cell count, replicate 1 = 5167; activity call = inactive
